Assay results taken from patent US7186534B1 (The Trustees of Columbia University in the City of New York, priority 1997, dated 2007).

By UniProt entry, the sequences of proteins in these tests, tags left out. Where a name states a change or a piece, a line headed by the entry shows the natural chain unless it says otherwise.
UniProt Q92781: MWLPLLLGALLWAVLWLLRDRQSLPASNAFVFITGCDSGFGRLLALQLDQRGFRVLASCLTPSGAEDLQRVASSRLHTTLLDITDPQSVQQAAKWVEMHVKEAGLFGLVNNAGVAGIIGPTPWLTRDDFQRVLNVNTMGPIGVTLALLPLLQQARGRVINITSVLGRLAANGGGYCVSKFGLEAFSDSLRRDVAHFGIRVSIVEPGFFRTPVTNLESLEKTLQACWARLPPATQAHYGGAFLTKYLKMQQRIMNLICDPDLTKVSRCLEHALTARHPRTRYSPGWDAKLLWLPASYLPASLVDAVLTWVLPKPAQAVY
UniProt O55240: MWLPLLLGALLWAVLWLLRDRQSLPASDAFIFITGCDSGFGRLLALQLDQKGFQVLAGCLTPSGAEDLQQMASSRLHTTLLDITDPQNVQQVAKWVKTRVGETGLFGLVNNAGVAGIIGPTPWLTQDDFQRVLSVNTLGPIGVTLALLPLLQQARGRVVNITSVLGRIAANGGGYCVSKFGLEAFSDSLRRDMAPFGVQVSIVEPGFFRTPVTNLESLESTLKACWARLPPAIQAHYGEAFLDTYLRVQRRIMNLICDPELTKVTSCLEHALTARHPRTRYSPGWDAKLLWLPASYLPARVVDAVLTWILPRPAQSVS

Legend:
[1] = target: human 9-cis retinol dehydrogenase (9cRDH) (Homo sapiens, UniProt Q92781); experiment: Inhibition of recombinant human 9cRDH activity (9-cis-retinol oxidation, CHO cell homogenate, HPLC); format: biochemical; settings: phenylarsine oxide 15 μM; carbenoxolone 0.5 mM; all others 1 mM
mouse 9cRDH = mouse 9cRDH (Mus musculus, UniProt O55240); experiment: Inhibition of recombinant mouse 9cRDH activity (9-cis-retinol oxidation, CHO cell homogenate, HPLC); format: biochemical; settings: phenylarsine oxide 15 μM; carbenoxolone 0.5 mM; all others 1 mM

Compound: O=[As]c1ccccc1 (centres unmarked)
- influence of SCAD/alcohol dehydrogenase inhibiting reagents on recombinant human 9cRDH activity [1]: none of these compounds influenced
- influence of SCAD/alcohol dehydrogenase inhibiting reagents on recombinant mouse 9cRDH activity (mouse 9cRDH): none of these compounds influenced
